Test results taken from article PMC8955606 (Toxins, 2022).

The binders below were run against Protective Antigen PA83 (83 kDa) of Bacillus anthracis (Bacillus anthracis, strain of …, UniProt P13423).

| Binder | koff [s⁻¹] |
| --- | --- |
| 35PA83 6.20 VH A122T (antibody, V domains shown) VH: QVQLQESGPGLLKPSETLSLTCAVSGDSISGGYYWSWIRQSPGKGLEWIGLIYGSTADTRYNPSLKGRVTISKDTSKNQLSLQLRSVTAADTAVYYCARSGYNFWSGEYYGLDSWGQGTVVTVSS VL: AIQLTQSPSSLSAYVGDKVTITCHASQGINSWLAWYQQKPGKAPKLLIYKASSLLSGVPSRFSGSGSGTDYTLTISSLQSEDFASYYCLQYDSAPLAFGPGTKLDIK | 0.000263 |
| 35PA83 6.20 VH V123L (antibody, V domains shown) VH: QVQLQESGPGLLKPSETLSLTCAVSGDSISGGYYWSWIRQSPGKGLEWIGLIYGSTADTRYNPSLKGRVTISKDTSKNQLSLQLRSVTAADTAVYYCARSGYNFWSGEYYGLDSWGQGALVTVSS VL: AIQLTQSPSSLSAYVGDKVTITCHASQGINSWLAWYQQKPGKAPKLLIYKASSLLSGVPSRFSGSGSGTDYTLTISSLQSEDFASYYCLQYDSAPLAFGPGTKLDIK | 0.000293 |
| 35PA83 6.20 VL Y14S (antibody, V domains shown) VH: QVQLQESGPGLLKPSETLSLTCAVSGDSISGGYYWSWIRQSPGKGLEWIGLIYGSTADTRYNPSLKGRVTISKDTSKNQLSLQLRSVTAADTAVYYCARSGYNFWSGEYYGLDSWGQGAVVTVSS VL: AIQLTQSPSSLSASVGDKVTITCHASQGINSWLAWYQQKPGKAPKLLIYKASSLLSGVPSRFSGSGSGTDYTLTISSLQSEDFASYYCLQYDSAPLAFGPGTKLDIK | 0.000439 |
| 35PA83 6.20 VL K18R (antibody, V domains shown) VH: QVQLQESGPGLLKPSETLSLTCAVSGDSISGGYYWSWIRQSPGKGLEWIGLIYGSTADTRYNPSLKGRVTISKDTSKNQLSLQLRSVTAADTAVYYCARSGYNFWSGEYYGLDSWGQGAVVTVSS VL: AIQLTQSPSSLSAYVGDRVTITCHASQGINSWLAWYQQKPGKAPKLLIYKASSLLSGVPSRFSGSGSGTDYTLTISSLQSEDFASYYCLQYDSAPLAFGPGTKLDIK | 0.000345 |
| 35PA83 6.20 VL H24R (antibody, V domains shown) VH: QVQLQESGPGLLKPSETLSLTCAVSGDSISGGYYWSWIRQSPGKGLEWIGLIYGSTADTRYNPSLKGRVTISKDTSKNQLSLQLRSVTAADTAVYYCARSGYNFWSGEYYGLDSWGQGAVVTVSS VL: AIQLTQSPSSLSAYVGDKVTITCRASQGINSWLAWYQQKPGKAPKLLIYKASSLLSGVPSRFSGSGSGTDYTLTISSLQSEDFASYYCLQYDSAPLAFGPGTKLDIK | 0.000435 |
| 35PA83 6.20 VL Y87F (antibody, V domains shown) VH: QVQLQESGPGLLKPSETLSLTCAVSGDSISGGYYWSWIRQSPGKGLEWIGLIYGSTADTRYNPSLKGRVTISKDTSKNQLSLQLRSVTAADTAVYYCARSGYNFWSGEYYGLDSWGQGAVVTVSS VL: AIQLTQSPSSLSAYVGDKVTITCHASQGINSWLAWYQQKPGKAPKLLIYKASSLLSGVPSRFSGSGSGTDFTLTISSLQSEDFASYYCLQYDSAPLAFGPGTKLDIK | 0.000129 |
| 35PA83 6.20 VL S101T (antibody, V domains shown) VH: QVQLQESGPGLLKPSETLSLTCAVSGDSISGGYYWSWIRQSPGKGLEWIGLIYGSTADTRYNPSLKGRVTISKDTSKNQLSLQLRSVTAADTAVYYCARSGYNFWSGEYYGLDSWGQGAVVTVSS VL: AIQLTQSPSSLSAYVGDKVTITCHASQGINSWLAWYQQKPGKAPKLLIYKASSLLSGVPSRFSGSGSGTDYTLTISSLQSEDFATYYCLQYDSAPLAFGPGTKLDIK | 0.000159 |
| 35PA83 6.20 VL D119E (antibody, V domains shown) VH: QVQLQESGPGLLKPSETLSLTCAVSGDSISGGYYWSWIRQSPGKGLEWIGLIYGSTADTRYNPSLKGRVTISKDTSKNQLSLQLRSVTAADTAVYYCARSGYNFWSGEYYGLDSWGQGAVVTVSS VL: AIQLTQSPSSLSAYVGDKVTITCHASQGINSWLAWYQQKPGKAPKLLIYKASSLLSGVPSRFSGSGSGTDYTLTISSLQSEDFASYYCLQYDSAPLAFGPGTKLEIK | 0.00028 |
| 35PA83 6.20 VH L13V (antibody, V domains shown) VH: QVQLQESGPGLVKPSETLSLTCAVSGDSISGGYYWSWIRQSPGKGLEWIGLIYGSTADTRYNPSLKGRVTISKDTSKNQLSLQLRSVTAADTAVYYCARSGYNFWSGEYYGLDSWGQGAVVTVSS VL: AIQLTQSPSSLSAYVGDKVTITCHASQGINSWLAWYQQKPGKAPKLLIYKASSLLSGVPSRFSGSGSGTDYTLTISSLQSEDFASYYCLQYDSAPLAFGPGTKLDIK | 0.000131 |
| 35PA83 6.20 VH S40G (antibody, V domains shown) VH: QVQLQESGPGLLKPSETLSLTCAVSGDSISGGYYWGWIRQSPGKGLEWIGLIYGSTADTRYNPSLKGRVTISKDTSKNQLSLQLRSVTAADTAVYYCARSGYNFWSGEYYGLDSWGQGAVVTVSS VL: AIQLTQSPSSLSAYVGDKVTITCHASQGINSWLAWYQQKPGKAPKLLIYKASSLLSGVPSRFSGSGSGTDYTLTISSLQSEDFASYYCLQYDSAPLAFGPGTKLDIK | 0.00011 |
| 35PA83 6.20 VH S45P (antibody, V domains shown) VH: QVQLQESGPGLLKPSETLSLTCAVSGDSISGGYYWSWIRQPPGKGLEWIGLIYGSTADTRYNPSLKGRVTISKDTSKNQLSLQLRSVTAADTAVYYCARSGYNFWSGEYYGLDSWGQGAVVTVSS VL: AIQLTQSPSSLSAYVGDKVTITCHASQGINSWLAWYQQKPGKAPKLLIYKASSLLSGVPSRFSGSGSGTDYTLTISSLQSEDFASYYCLQYDSAPLAFGPGTKLDIK | 0.000431 |
| 35PA83 6.20 VH K80V (antibody, V domains shown) VH: QVQLQESGPGLLKPSETLSLTCAVSGDSISGGYYWSWIRQSPGKGLEWIGLIYGSTADTRYNPSLKGRVTISVDTSKNQLSLQLRSVTAADTAVYYCARSGYNFWSGEYYGLDSWGQGAVVTVSS VL: AIQLTQSPSSLSAYVGDKVTITCHASQGINSWLAWYQQKPGKAPKLLIYKASSLLSGVPSRFSGSGSGTDYTLTISSLQSEDFASYYCLQYDSAPLAFGPGTKLDIK | 0.000908 |
| 35PA83 6.20 VH L87F (antibody, V domains shown) VH: QVQLQESGPGLLKPSETLSLTCAVSGDSISGGYYWSWIRQSPGKGLEWIGLIYGSTADTRYNPSLKGRVTISKDTSKNQFSLQLRSVTAADTAVYYCARSGYNFWSGEYYGLDSWGQGAVVTVSS VL: AIQLTQSPSSLSAYVGDKVTITCHASQGINSWLAWYQQKPGKAPKLLIYKASSLLSGVPSRFSGSGSGTDYTLTISSLQSEDFASYYCLQYDSAPLAFGPGTKLDIK | 0.000373 |
| 35PA83 6.20 VH Q90K (antibody, V domains shown) VH: QVQLQESGPGLLKPSETLSLTCAVSGDSISGGYYWSWIRQSPGKGLEWIGLIYGSTADTRYNPSLKGRVTISKDTSKNQLSLKLRSVTAADTAVYYCARSGYNFWSGEYYGLDSWGQGAVVTVSS VL: AIQLTQSPSSLSAYVGDKVTITCHASQGINSWLAWYQQKPGKAPKLLIYKASSLLSGVPSRFSGSGSGTDYTLTISSLQSEDFASYYCLQYDSAPLAFGPGTKLDIK | 0.00011 |
| 35PA83 6.20 VH R92S (antibody, V domains shown) VH: QVQLQESGPGLLKPSETLSLTCAVSGDSISGGYYWSWIRQSPGKGLEWIGLIYGSTADTRYNPSLKGRVTISKDTSKNQLSLQLSSVTAADTAVYYCARSGYNFWSGEYYGLDSWGQGAVVTVSS VL: AIQLTQSPSSLSAYVGDKVTITCHASQGINSWLAWYQQKPGKAPKLLIYKASSLLSGVPSRFSGSGSGTDYTLTISSLQSEDFASYYCLQYDSAPLAFGPGTKLDIK | 0.000301 |
